Anti-infective test results gathered from many reports (values: NIAID ChemDB through PubChem).

Common to all: tests in culture; species: Toxoplasma gondii; read-out: EC50

Conditions beyond the fields shown may differ between rows. ECn is the concentration giving n% inhibition of infection, replication or growth.

O=C1C(=O)c2ccccc2C(O)=C1C1CCC(c2ccc(Cl)cc2)CC1 ; strain: RH (type I) ; read by: ELISA ; value: 16.51 µM
COc1cc(C(C)C#Cc2c(C)nc(N)nc2N)cc(OC)c1OC ; value: 0.001 µM
C/C1=C\[C@H](C)C[C@H](C)OC(=O)C[C@H](c2ccc(O)cc2)NC(=O)[C@@H](Cc2c(Br)[nH]c3ccccc23)N(C)C(=O)[C@H](C)NC(=O)[C@H](C)C1 ; strain: RH ; value: >5 µM
CCCN(CCC)c1c([N+](=O)[O-])cc(S(N)(=O)=O)cc1[N+](=O)[O-] ; strain: Oryzalin-resistant ; value: 3 µM
CC(C)=CCCc1ccc2c(c1)C(=O)C=C(N1CCCC1)C2=O ; strain: RH (type I) ; read by: ELISA ; value: 173 µM
CCCCCCCCCCCCc1c(C)c(=O)c2ccccc2n1O ; value: 0.004 µM
Nc1ccc(S(=O)(=O)Nc2ncccn2)cc1 ; strain: RH ; read by: ELISA ; value: 7.3 µg/mL
CO[C@H]1/C=C/O[C@@]2(C)Oc3c(C)c(O)c4c(O)c(c5c(c4c3C2=O)NC2(CCN(CC(C)C)CC2)N=5)=NC(=O)/C(C)=C\C=C\[C@H](C)[C@H](O)[C@@H](C)[C@@H](O)[C@@H](C)[C@H](OC(C)=O)[C@@H]1C ; value: 1.68 µg/mL
Nc1ccc(S(=O)(=O)Nc2cc(Cl)cc(Cl)c2)cc1 ; value: 37 µM
Nc1ccc(S(=O)(=O)Nc2ncccn2)cc1 ; value: <3 µg/mL
Nc1ccc(S(=O)(=O)Nc2cc(I)cc(I)c2)cc1 ; value: 15.9 µM
CC1(C)N=C(N)N=C(N)N1OCCCOc1cc(Cl)c(Cl)cc1Cl ; strain: RH ; value: 0.05 µM
O=[N+]([O-])c1ccc(CNc2ncnc3c2ncn3[C@@H]2O[C@H](CO)[C@@H](O)[C@H]2O)c(F)c1 ; value: 230 µM
CCCCCCN(CC1=C(O)c2ccccc2C(=O)C1=O)Cc1ccccc1 ; strain: PLK ; value: 1.2 µM
O=C1c2ccccc2-c2c3c(cc4ccnc1c24)OCO3 ; strain: RH (type I) ; read by: ELISA ; value: 0.07 µM
CCCCCCCc1c(C)[nH]c2cc(OC)ccc2c1=O ; strain: 2F ; read by: absorbance ; value: 0.000003 µM
CC(=O)O[C@H]1C(=O)[C@@]2(C)[C@H]([C@H](OC(=O)c3ccccc3)[C@]3(O)C[C@H](OC(=O)[C@H](O)[C@@H](NC(=O)c4ccccc4)c4ccccc4)C(C)=C1C3(C)C)[C@]1(OC(C)=O)CO[C@@H]1C[C@@H]2O ; strain: RH ; value: <2 µM
Oc1[nH]c2ccccc2c1/C=N/N=C/c1ccco1 ; read by: MTS ; value: 19.7 µM
C=C1CC[C@H](O)C/C1=C/C=C1\CCC[C@]2(C)[C@@H]([C@H](C)CCCC(C)C)CC[C@@H]12 ; strain: RH ; value: <0.1 µM

Repeating the first 2 entries:

{"compound": "O=C1C(=O)c2ccccc2C(O)=C1C1CCC(c2ccc(Cl)cc2)CC1", "strain": "RH (type I)", "read by": "ELISA", "value": "16.51 µM"}
{"compound": "COc1cc(C(C)C#Cc2c(C)nc(N)nc2N)cc(OC)c1OC", "value": "0.001 µM"}